Results of unrelated studies side by side (data: NIAID ChemDB).

All rows: whole-cell or culture tests; species: HIV-1; read-out: EC90

An empty or dashed field is not shown. ECn: concentration that inhibits the pathogen or its effect by n%. Rows are shuffled and stem from different studies. a–b is a range or a potency band.

| smiles | strain or isolate | mutations | cells | method | conditions | value |
|---|---|---|---|---|---|---|
| Cc1ccnc2c1NC(=O)c1cccnc1N2C1CC1 | NL4-3 | - | ACH2 + TZM-bl | luciferase | - | 0.179 µM |
| O=c1[nH]cnc2c1ncn2[C@H]1CC[C@@H](CO)O1 | RT-M184V XM-M184V | RT-M184V | PBMC | p24 | - | 25 µM |
| CCn1nc(Cc2ccc(OC3CC3)cc2)cc1C1CCN(C[C@H]2CN([C@@H](C(=O)O)C3CCCCC3)C[C@@H]2c2cccc(F)c2)CC1 | BaL | - | HeLa | β-galactosidase | 50% human serum | 0.033 µM |
| CC[C@H](C)[C@H](NC(=O)Cc1ccccn1)C(=O)N[C@@H](Cc1ccccc1)[C@@H](O)[C@H](O)[C@H](Cc1ccccc1)NC(=O)[C@@H](NC(=O)Cc1ccccn1)[C@@H](C)CC | RF | - | MT-2 | plaque count / virus yield | - | 0.38 µg/mL |
| Cc1cn([C@H]2C[C@H](C#N)[C@@H](CO)O2)c(=O)[nH]c1=O | IIIB | - | ATH8 | cytopathic effect | - | >2.5 µg/mL |
| CCn1nc(Cc2ccc(O)cc2)cc1C1CCN(C[C@H]2CN([C@@H](C(=O)O)C(C)(C)C)C[C@@H]2c2cccc(F)c2)CC1 | BaL | - | HeLa | β-galactosidase | - | 0.0004 µM |
| Cc1cc(O)c(C)c(C(=O)N[C@@H](Cc2ccc3ccccc3c2)[C@H](O)C(=O)N2C[C@@H](Cl)C[C@H]2C(=O)NC(C)(C)C)c1 | IIIB | - | CEM | p24 | - | 0.027 µM |
| CC(C)(C)NC(=O)[C@@H]1CN(Cc2cccnc2)CCN1C[C@@H](O)C[C@@H](Cc1ccccc1)C(=O)N[C@H]1c2ccccc2C[C@H]1O | LAI | - | PBL | RT activity | - | 0.034 µM |
| Cc1cn([C@H]2C[C@H](N=[N+]=[N-])[C@@H](CO)O2)c(=O)[nH]c1=O | - | - | Macrophage | p24 / ELISA | - | 0.07 µM |
| CC(C)c1nc(CN(C)C(=O)N[C@H](C(=O)N[C@@H](Cc2ccccc2)C[C@H](O)[C@H](Cc2ccccc2)NC(=O)OCc2cncs2)C(C)C)cs1 | LAI | - | PBL | RT activity | - | 0.051 µM |
| CC(C)CN(C[C@@H](O)[C@H](Cc1ccccc1)NC(=O)O[C@H]1CCOC1)S(=O)(=O)c1ccc(N)cc1 | HXB2 | PR-M46I L63P A71V V82F I84V | PBMC | p24 | - | 1.33 µM |
| C1CNCCNCCCN[C@H]([C@@H]2CNCCCNCCNCCCN2)CNC1 | IIIB | - | HuT-78 + HUT 78 | antigen | - | 1.45 µM |
| Cc1cn([C@H]2C=C[C@@H](CO)O2)c(=O)[nH]c1=O | BaL | - | MM + M/M | antigen | - | 0.78 µM |
| CCOc1cccc(Cc2cc(C3CCN(C[C@H]4CN([C@@H](C(=O)O)[C@@H](C)CC)C[C@@H]4c4cccc(F)c4)CC3)n(CC)n2)c1 | BaL | - | HeLa | β-galactosidase | - | <0.00014 µM |
| COC(=O)[C@H](C)NP(=O)(OC[C@@H]1CC[C@H](n2cnc3c(N)ncnc32)O1)Oc1ccccc1 | BaL | - | MM + M/M | antigen | - | 0.02 µM |
| CCN(c1ncccc1NC(C)(C)C)C1CCN(C(=O)c2cc3cc(NS(C)(=O)=O)ccc3[nH]2)CC1 | Isolate 458 | - | PBMC | p24 | - | 0.03 µM |
| CCCOc1ccc(Cc2cc(C3CCN(C[C@H]4CN([C@@H](C(=O)O)[C@H](C)CC)C[C@@H]4c4cccc(F)c4)CC3)n(CC)n2)cc1 | BaL | - | HeLa | β-galactosidase | - | 0.0012 µM |
| Cc1cn([C@H]2C[C@H](N=[N+]=[N-])[C@@H](CO)O2)c(=O)[nH]c1=O | Isolate 472 | - | PBMC | p24 | - | 1.4 µM |
| Nc1nc(N)c2ncn(C[C@@H](CO)OCP(=O)(O)O)c2n1 | LAV | - | C3 | RT activity | - | 36 µM |
| COc1oc([C@H]2C/C(=C/C(C)=C/c3ccc(C(F)(F)F)cc3Cl)CO2)c(C)c(=O)c1C | LAI | - | PBMC + LC5-RIC | fluorescence | - | 0.0741 µM |
| CC(C)CN(C[C@@H](O)[C@H](Cc1ccccc1)NC(=O)O[C@H]1CCOC1)S(=O)(=O)c1ccc(N)cc1 | NL4-3-P22 (PR D30N A71V) | PR-D30N A71V | MT-4 | p24 | - | 0.04 µM |
| Nc1nc2c(ncn2[C@H]2CO[C@@H](CO)O2)c(=O)[nH]1 | - | - | - | - | - | 15 µM |
| CO[C@H]1/C=C/O[C@@]2(C)Oc3c(C)c(O)c4c(c3C2=O)C(=O)C(SCCCCCCCOC(=O)CCCC(=O)OC[C@H]2O[C@@H](n3cc(C)c(=O)[nH]c3=O)C[C@@H]2N=[N+]=[N-])=C(NC(=O)/C(C)=C\C=C\[C@H](C)[C@H](O)[C@@H](C)[C@@H](O)[C@@H](C)[C@H](OC(C)=O)[C@@H]1C)C4=O | IIIB | - | C8166 | p24 | - | 13 µM |
| Cc1cn([C@H]2C[C@H](N=[N+]=[N-])[C@@H](CO)O2)c(=O)[nH]c1=O | IIIB | - | MOLT4 + MOLT-4 | p24 / ELISA | - | <0.001 µg/mL |
| CC(C)(C)NC(=O)[C@@H]1CN(Cc2cccnc2)CCN1C[C@@H](O)C[C@@H](Cc1ccccc1)C(=O)N[C@H]1c2ccccc2C[C@H]1O | BR60 (PR L10I K20R M36I/V P63L/S L90M) | PR-L10I K20R M36I/V P63L/S L90M | PBMC | p24 | - | 0.02 µM |
| Cc1cn([C@H]2C[C@H](N=[N+]=[N-])[C@@H](CO)O2)c(=O)[nH]c1=O | BaL | - | MONO/MACRO + Monocytes/macrophages | - | - | 0.26 µg/mL |
| CC(C)=CCN1Cc2cc(Cl)cc3[nH]c(=S)n(c23)C[C@@H]1C | MF | - | MT-4 | antigen | - | 0.19 µM |
| O=c1[nH]cnc2c1ncn2C1CC[C@@H](CO)O1 | LAI | - | Primary T lymphocytes | p24 / ELISA | - | 55.4 µM |
| CC(C)CN(C[C@@H](O)[C@H](Cc1ccccc1)NC(=O)[C@H](CC(N)=O)NC(=O)c1ccc2ccccc2n1)C(=O)NC(C)(C)C | LAV-1 | - | CEM | RT activity | - | 1.18 µM |
| Cc1cn([C@H]2C[C@H](N=[N+]=[N-])[C@@H](CO)O2)c(=O)[nH]c1=O | LAV | - | H9 | RT activity | - | 0.3 µM |
| Cc1c(O)cc(F)cc1C(=O)N[C@@H](Cc1ccc2ccccc2c1)[C@H](O)C(=O)N1C[C@@H](Cl)C[C@H]1C(=O)NC(C)(C)C | IIIB | - | CEM | p24 | - | 0.031 µM |
| CC[C@H](C)[C@H](C(=O)O)N1C[C@H](CN2CCC(c3cc(Cc4ccc5c(c4)OCO5)nn3CC)CC2)[C@@H](c2cccc(F)c2)C1 | BaL | - | HeLa | β-galactosidase | - | <0.00014 µM |
| O=C1OCc2c1cc1cc(O)c(O)cc1c2-c1ccc(O)c(O)c1 | CONB/pNL43E-Luc+ | - | U87 (CD4+ CCR5+) + U87 | luciferase | - | 17.6 µg/mL |
| Cc1c(O)cccc1C(=O)N[C@@H](Cc1ccccc1)[C@H](O)C(=O)N1C[C@@H](Cl)C[C@H]1C(=O)NC(C)(C)C | IIIB | - | CEM | p24 | - | 0.11 µM |
| CCOCn1c(Cc2ccccc2)c(C(C)C)c(=O)[nH]c1=O | IIIB | - | MT-4 | cytopathic effect / MTT | - | 0.06 µM |
| CC(C)[C@H](NC(=O)OCc1ccccc1)C(=O)N[C@@H](Cc1ccccc1)[C@@H](O)[C@H](O)[C@H](Cc1ccccc1)NC(=O)[C@@H](NC(=O)OCc1ccccc1)C(C)C | RF | - | MT-2 | - | - | 0.04 µg/mL |
| CC(C)(C)OC(=O)N[C@@H](Cc1ccccc1)[C@@H](O)C[C@@H](Cc1ccc(OCc2nn[nH]n2)cc1)C(=O)N[C@H]1c2ccccc2C[C@H]1O | IIIB | - | H9 | p24 | - | >10 µM |
| Cc1cn([C@H]2C[C@H](N=[N+]=[N-])[C@@H](CO)O2)c(=O)[nH]c1=O | XM-M184V | RT-M184V | MT-4 | p24 | - | 0.009 µM |
| Cc1c(O)cccc1C(=O)N[C@@H](CSc1ccccc1)[C@H](O)CN1C[C@H]2CCCC[C@H]2C[C@H]1C(=O)NC(C)(C)C | HXB2 | PR-M46I L63P A71V V82F I84V | PBMC | p24 | - | 0.45 µM |
| CCN(C(=O)OCc1ccc([N+](=O)[O-])cc1)C1CCN(CC[C@](C)(CN(C)S(=O)(=O)c2ccccc2)c2ccccc2)CC1 | YU-2 (M-tropic) | - | MAGI + MAGI-CCR5 | - | - | <0.05 µM |
| Cc1cc(O)c(C)c(C(=O)N[C@@H](Cc2ccccc2)[C@H](O)C(=O)N2C[C@@H](Cl)C[C@H]2C(=O)NC(C)(C)C)c1 | IIIB | - | CEM | p24 | - | 0.115 µM |
| Cc1cn([C@H]2C[C@H](N=[N+]=[N-])[C@@H](CO)O2)c(=O)[nH]c1=O | IIIB | - | H9 | p24 | chronic infection | >100 µM |
| CCCN(C(=O)OCc1ccccc1)C1CCN(CCC(CN(C)S(=O)(=O)c2ccccc2)c2ccccc2)CC1 | BaL | - | MAGI + MAGI-CCR5 | - | - | >0.3 µM |
| CCOc1cccc(Cc2cc(C3CCN(C[C@H]4CN([C@@H](C(=O)O)C(C)(C)C)C[C@@H]4c4cccc(F)c4)CC3)n(CC)n2)c1 | BaL | - | HeLa | β-galactosidase | - | <0.00014 µM |
| COc1oc([C@H]2C/C(=C/C(C)=C/c3ccc(C(C)(C)C)cc3)CO2)c(C)c(=O)c1C | LAI | - | PBMC + LC5-RIC | fluorescence | - | 3.939 µM |
| CO[C@H]1/C=C/O[C@@]2(C)Oc3c(C)c(O)c4c(c3C2=O)C(=O)C(SCCOC(=O)CCC(=O)OC[C@H]2O[C@@H](n3cc(C)c(=O)[nH]c3=O)C[C@@H]2N=[N+]=[N-])=C(NC(=O)/C(C)=C\C=C\[C@H](C)[C@H](O)[C@@H](C)[C@@H](O)[C@@H](C)[C@H](OC(C)=O)[C@@H]1C)C4=O | IIIB | - | C8166 | p24 | - | 14 µM |
| CC(C)(O)c1cccc(CN2C(=O)N(Cc3cccc(C(C)(C)O)c3)[C@H](Cc3ccccc3)[C@H](O)[C@@H](O)[C@H]2Cc2ccccc2)c1 | RF | - | MT-2/MT-4 + MT-2 | - | - | 0.0337 µM |
| CC[C@H](C)[C@H](C(=O)O)N1C[C@H](CN2CCC(c3cc(Cc4ccc(C(F)(F)F)cc4)nn3CC)CC2)[C@@H](c2cccc(F)c2)C1 | BaL | - | HeLa | β-galactosidase | - | <0.00014 µM |
| O=C1N(Cc2cccc(CO)c2)[C@H](Cc2ccccc2)[C@H](O)[C@@H](O)[C@@H](Cc2ccccc2)N1Cc1cccc(CO)c1 | RF | - | MT-2/MT-4 + MT-2 | - | - | 0.0388 µM |
| CN=C1CN=C(c2ccc[nH]2)c2cc(Cl)ccc2N1 | Ba-L-85 | - | Macrophage | p24 | - | 3–6 µM |
| CC(C)CN(C[C@@H](O)[C@H](Cc1ccccc1)NC(=O)O[C@H]1CCOC1)S(=O)(=O)c1ccc(N)cc1 | - | - | CEM | RT activity | - | 0.04 µg/mL |
| COc1ccc(-c2c3c(cc4cc(OC)c(OC)cc24)CN(CC(C)C)C3)cc1OC | CONB/pNL43E-Luc+ | - | U87 (CD4+ CCR5+) + U87 | luciferase | - | 2.76 µg/mL |
| Cc1cn([C@H]2C[C@H](N=[N+]=[N-])[C@@H](CO)O2)c(=O)[nH]c1=O | 458 clinical isolates delavirdine-resistant | - | PBMC | p24 | - | 0.3 µM |
| CO[C@H]1/C=C/O[C@@]2(C)Oc3c(C)c(O)c4c(c3C2=O)C(=O)C(SCCOC(=O)CCCC(=O)OC[C@@H]2O[C@H](n3cc(C)c(=O)[nH]c3=O)C[C@H]2N=[N+]=[N-])=C(NC(=O)/C(C)=C\C=C\[C@H](C)[C@H](O)[C@@H](C)[C@@H](O)[C@@H](C)[C@H](OC(C)=O)[C@@H]1C)C4=O | IIIB | - | C8166 | p24 | - | 6 µM |
| COC(=O)[C@H](C)NP(=O)(OC[C@@H]1O[C@H](n2ccc(N)nc2=O)CS1)Oc1ccccc1 | BaL | - | MM + M/M | antigen | - | 0.18 µM |
| C1CNCCNCCCN(CCCN2CCCNCCNCCCNCC2)CCNC1 | IIIB | - | PBL | p24 / ELISA | - | 3.73 µM |
| Cc1nnc(C(=O)NC(C)(C)c2nc(C(=O)NCc3ccc(F)cc3)c(O)c(=O)n2C)o1 | NL4-3 | - | ACH2 + TZM-bl | luciferase | - | 0.00333 µM |
| COc1oc([C@H]2C/C(=C/C(C)=C/c3ccc(Cl)cc3Cl)CO2)c(C)c(=O)c1C | LAI | - | PBMC + LC5-RIC | fluorescence | - | 1.818 µM |
| CC(C)Nc1cccnc1N1CCN(C(=O)c2cc3cc(NS(C)(=O)=O)ccc3[nH]2)CC1 | 477 clinical isolates delavirdine-resistant | - | PBMC | p24 | - | 6.7 µM |

The first 7 rows once more:

smiles,strain or isolate,mutations,cells,method,conditions,value
Cc1ccnc2c1NC(=O)c1cccnc1N2C1CC1,NL4-3,-,ACH2 + TZM-bl,luciferase,-,0.179 µM
O=c1[nH]cnc2c1ncn2[C@H]1CC[C@@H](CO)O1,RT-M184V XM-M184V,RT-M184V,PBMC,p24,-,25 µM
CCn1nc(Cc2ccc(OC3CC3)cc2)cc1C1CCN(C[C@H]2CN([C@@H](C(=O)O)C3CCCCC3)C[C@@H]2c2cccc(F)c2)CC1,BaL,-,HeLa,β-galactosidase,50% human serum,0.033 µM
CC[C@H](C)[C@H](NC(=O)Cc1ccccn1)C(=O)N[C@@H](Cc1ccccc1)[C@@H](O)[C@H](O)[C@H](Cc1ccccc1)NC(=O)[C@@H](NC(=O)Cc1ccccn1)[C@@H](C)CC,RF,-,MT-2,plaque count / virus yield,-,0.38 µg/mL
Cc1cn([C@H]2C[C@H](C#N)[C@@H](CO)O2)c(=O)[nH]c1=O,IIIB,-,ATH8,cytopathic effect,-,>2.5 µg/mL
CCn1nc(Cc2ccc(O)cc2)cc1C1CCN(C[C@H]2CN([C@@H](C(=O)O)C(C)(C)C)C[C@@H]2c2cccc(F)c2)CC1,BaL,-,HeLa,β-galactosidase,-,0.0004 µM
Cc1cc(O)c(C)c(C(=O)N[C@@H](Cc2ccc3ccccc3c2)[C@H](O)C(=O)N2C[C@@H](Cl)C[C@H]2C(=O)NC(C)(C)C)c1,IIIB,-,CEM,p24,-,0.027 µM